Pooled drug test results. Numbers come from NIAID ChemDB, via PubChem.

Shared fields: target-level tests; organism: HIV-1; protein: Reverse transcriptase; read-out: Ki

An empty or dashed field is not shown. Lines come from different laboratories, so protocols vary.

compound | mutations | strain or isolate | result
Nc1nc2c(ncn2[C@H]2CO[C@@H](COP(=O)(O)OP(=O)(O)OP(=O)(O)O)O2)c(=O)[nH]1 | - | - | 0.019 µM
Cc1cn([C@H]2C=C[C@@H](COP(=O)(O)OP(=O)(O)OP(=O)(O)O)O2)c(=O)[nH]c1=O | - | LAV | 0.012 µM
Cc1cccc(NC(=S)N[C@@H](C)c2cccc3ccccc23)n1 | - | - | >100 µM
Nc1nc2c(ncn2[C@H]2C=C[C@@H](COP(=O)(O)OP(=O)(O)OP(=O)(O)O)C2)c(=O)[nH]1 | - | - | 0.09 µM
C[C@@H](NC(=S)Nc1ccc(Cl)cn1)c1cccc2ccccc12 | - | - | 0.01 µM
Cc1cn([C@H]2C[C@H](N=[N+]=[N-])[C@@H](COP(=O)(O)OP(=O)(O)C(F)(F)P(=O)(O)O)O2)c(=O)[nH]c1=O | - | - | 0.041 µM
Nc1nc2c(ncn2[C@H]2C=C[C@@H](COP(=O)(O)OP(=O)(O)OP(=O)(O)O)C2)c(=O)[nH]1 | RT-M184V | - | 14 µM
COc1cc(O)c2c(=O)c3c(O)c(-c4c(O)c([C@@H]5O[C@H](CO)[C@@H](O)[C@H](O)[C@H]5O)c(O)c5c(=O)cc(-c6ccc(O)c(O)c6)oc45)cc(O)c3oc2c1 | - | - | 43 µM
C[C@H](CNC(=S)Nc1ccc(Cl)cn1)C1CCCCC1 | - | - | >100 µM
O=C(OC1[C@H](OC(=O)c2cc(O)c(O)c(O)c2)CC(O)(C(=O)O)C[C@H]1OC(=O)c1cc(O)c(O)c(O)c1)c1cc(O)c(O)c(O)c1 | - | - | 0.04 µM
O=c1c(O)c(-c2ccc(O)c(O)c2)oc2cc(O)c(O)c(O)c12 | - | - | 0.46 µM
CSCSc1nc(Cc2cc(C)cc(C)c2)c(C(C)C)c(=O)[nH]1 | - | IIIB | 0.06 µM
Cc1ccc(NC(=S)N[C@@H](C)c2cccc3ccccc23)nc1 | - | - | >100 µM
Nc1ccn([C@@H]2CS[C@H](COP(=O)(O)OP(=O)(O)OP(=O)(O)O)O2)c(=O)n1 | - | - | 0.28 µM
O=P(O)(O)OP(=O)(O)O | - | - | 1200 µM
O=C(/C=C/c1ccc(O)c(O)c1)O[C@@H]1CC(O)(C(=O)O)C[C@@H](OC(=O)/C=C/c2ccc(O)c(O)c2)C1O | - | - | 1.31 µM
Cc1cn([C@H]2CC[C@@H](COP(=O)(O)OP(=O)(O)OP(=O)(O)O)O2)c(=O)[nH]c1=O | RT-M184V | - | 8.1 µM
C[C@@H](CNC(=S)Nc1ccc(Br)cn1)C1CCCCC1 | - | - | 1.1 µM
Cc1cn([C@@H]2C=C[C@H](COP(=O)(O)OP(=O)(O)OP(=O)(O)O)O2)c(=O)[nH]c1=O | RT-M184V | - | 1600 µM
Cc1cn([C@H]2C[C@H](N=[N+]=[N-])[C@@H](COP([O-])(=S)OP(=O)(O)C(F)(F)P(=O)(O)O)O2)c(=O)[nH]c1=O | - | - | 0.09 µM
C[C@H](NC(=S)Nc1nc2ccccc2s1)c1cccc2ccccc12 | - | - | >100 µM
[B-][P@](=O)(OC[C@@H]1C=C[C@H](n2cc(C)c(=O)[nH]c2=O)O1)OP(=O)(O)OP(=O)(O)O | - | - | 0.0203 µM
Nc1ccn([C@H]2CC[C@@H](COP(=O)(O)OP(=O)(O)OP(=O)(O)O)O2)c(=O)n1 | - | - | 0.8 µM